Measured values: patent US20210292392A1 (TSB THERAPEUTICS BEIJING, published 2021)

Target: recombinant RBD of the spike protein of SARS-CoV (SARS-CoV, UniProt P59594 306-527)
Assay: SPR, RBD on CM5 chip

B1: P2C-1C10 (antibody, V domains shown)
VH: QVQLVQSGAEVKKPGSSVKVSCKASGGTFSSYAIIWVRQAPGQGLEWMGGIIPIFGTANYAQKFQGRVTITADESTSTAYMELSSLRSEDTAVYYCARVVTGYYFDYWGQGTLVTVSS
VL: EIVLTQSPATLSLSPGERATLSCRASQSVSSYLAWYQQKPGQAPRLLIYDASNRATGIPARFSGSGSGTDFTLTISSLEPEDFAVYYCQQRSNWPSFGQGTKLEIKR
notes: human IgG1, kappa
- binding result: no binding (tested: not printed)

B2: P2C-1C8 (antibody, V domains shown)
VH: QVQLVESGGGVVQPGRSLRLSCAASGFTFRSYGMHWVRQAPGKGLEWVAVIWYDGSNKYYADSVKGRFTISRDNSKNTLYLQMNSLRAEDTAVYYCARDIEIVVVNIDYWGQGTLVTVSS
VL: not shown
notes: human IgG1, kappa
- binding result: no binding (tested: not printed)

B3: P2C-1A3 (antibody, V domains shown)
VH: QVQLVESGGGLVKPGGSLRLSCAASGFTFSDYYMSWIRQAPGKGLEWVSYISSSGSTIYYADSVKGRFTISRDNAKNSLYLQMNSLRAEDTAVYYCARDFSHQQLVPSWGQGTLVTVSS
VL: not shown
notes: human IgG1, kappa
- binding result: no binding (tested: not printed)
